Consider two sequences from paper PMC6083042.

In this series the target is rArsR~P (phosphorylated ArsR response regulator) (Helicobacter pylori) (UniProt O24973). Nature of the series: EMSA. The following applies: acetyl phosphate-phosphorylated ArsR, 0.10-0.82 ug, recombinant protein, label: 32P 5' end label (T4 PNK), probe letters rebuilt from the primers and the genome.

Construct, isoform or probe ends are uncertain for at least one entry.

Turning to “CGCTAAGTAAAGCGCTTTTTAGAAAATTAAGGGGCGTGAAACGCCCTAACCGCTAAAGATGTGCAAGTTTTTGCTAGGGGGTTTTAAGGGTTTTGAGTGTCAAGTTTTTATTAACATAGCCTAATTAATGATAAATAAACTATAAAACAAACGCTCGTTGTTAAGATTTTGTTTCAATATGAAACACTAATCCCTTGTAAAAACTTTAAATTTCAAAAAACAAACAAACAACCCCCTTAAATTGTATAATTAAGACACTATAAACTAAAAAGAGATAACCTCTAGAGCGCG (double strand) [homB promoter]”, the binding result (shift even at low protein, competed by 2x unlabeled homB promoter) was “binds”.

For the sequence “CAATTAACTCCTTCAATGATTTCTACAACTTTAAAAACGATTAACTCTGTTAATGTTTTAAGGGCTTGATTTTAGCATTTTATTACTAAAGATACCTTAAAGATGTCTTAAAAATAAAAATTCAAAACATTATCATAGTTATTAATAGAAATTTAAGGCTTTGTTTTCATGGAATATTGAAAATTAAAGCCTTATTTTTTAATGTTTTTAAACAATTCCTTTGATCGTTTT (double strand) [arsR promoter (positive control)]”, the binding result (shift only at higher protein, competed by 2x unlabeled arsR promoter) is “binds”.
